Pooled drug test results. Numbers come from NIAID ChemDB, via PubChem.

All rows: growth or infection tests; species: HIV-1

An empty or dashed field is not shown.

compound	strain or isolate	read by	measure	cells	changes	value
Nc1nc(Br)nc2c1ncn2[C@@H]1O[C@H](CO)[C@H]1O	IIIB	-	EC50	MT-4	-	7.2 µg/mL
Cc1cc(COc2cncc(C#N)c2)cc(C)c1Oc1ccnc(Nc2ccc(C#N)cc2)n1	-	MTT	EC50	MT-4	-	0.2652 µM
Cc1cn([C@H]2C[C@H](N=[N+]=[N-])[C@@H](CO)O2)c(=O)[nH]c1=O	IIIB	RT activity	EC50	MT-4	-	0.0098 µM
c1ccc2c(c1)ncc1cc3c(cc12)OCO3	IIIB	p24	EC50	MT-4	-	5 µg/mL
COc1ccc(S(=O)(=O)N(CC(C)C)CC(O)C(NC(=O)OCc2ccccc2)Sc2ccccc2)cc1	BRU	cytopathic effect	EC50	MT-4	-	0.1–1 µM
O=C1N(Cc2cccc(CO)c2)[C@H](Cc2ccccc2)[C@H](O)[C@@H](O)[C@@H](Cc2ccccc2)N1Cc1cccc(-c2ccn[nH]2)c1	RF	-	EC50	MT-2	-	<0.234 µM
CC(=O)Oc1ccc(/C=C/C(=O)O[C@@H](C(=O)O)[C@@H](OC(=O)/C=C/c2ccc(OC(C)=O)c(OC(C)=O)c2)C(=O)O)cc1OC(C)=O	NL4-3	-	EC50	MT-4	gp120 S158N N293D T370N T376N E377Q	8 µM
COc1nc(Cc2ccccc2)c(C)c(=O)[nH]1	IIIB	MTT / virus yield	EC90	MT-4	-	>200 µM
Cc1ccnc2c1NC(=O)c1cccnc1N2C1CC1	-	cytopathic effect / MTT	EC50	MT-4	RT-K103N Y181C	>10 µM
N#Cc1ccc(Nc2nccc(Oc3cc4c(cc3Br)c(=O)c(C(=O)O)cn4C3CCCC3)n2)cc1	IIIB	MTT	EC50	MT-4	K103N Y181C NNRTI-resistant	2.76 µM
CCOCn1c([Se]c2cccc(C)c2)c(C(C)C)c(=O)[nH]c1=O	RF	cytopathic effect / XTT	EC50	CEM + CEM-SS	-	0.0081 µM
Cc1cc(CC#N)cc(C)c1Nc1ccnc(Nc2ccc(C#N)cc2)n1	LAI	cytopathic effect / MTT	EC50	MT-4	-	0.0008 µM
c1cc(CCNCCN2CCCCC2)ccc1CCNCCN1CCCCC1	NL4-3	MTT	EC50	MT-4	-	0.1 µg/mL
C/C(C#N)=C\c1cc(C)c(Nc2ccnc(Nc3ccc(C#N)cc3)n2)c(C)c1	-	cytopathic effect / MTT	EC50	MT-4	RT-Y188L	0.00316 µM
C[C@H]1[C@H](O)[C@H](C)[C@@]2(NC(=O)OC(C)(C)C)O[C@@H]1[C@@H]1O[C@@H]12	NL4-3	MTT	EC50	MT-4	-	>440 µM
COc1ccc2c(O)c(C(c3cccc(NS(=O)(=O)c4ccc(C#N)cc4)c3)C3CC3)c(=O)oc2c1	IIIB	p24	EC50	MT-4	-	>>10 µM
Nc1nc(F)nc2c1ncn2[C@@H]1O[C@H](CO)[C@H]1O	IIIB	-	EC50	MT-4	-	0.016 µg/mL
Cc1cn([C@H]2C[C@H](N=[N+]=[N-])[C@@H](CO)O2)c(=O)[nH]c1=O	IIIB	-	EC50	CBMC	-	0.002 µM
CO[C@@H]1C=C[C@@]23c4cc5c(cc4CN(C[C@@H]2O)[C@H]3C1)OCO5	IIIB	p24	EC50	MT-4	-	0.8 µg/mL
CCOC(=O)[C@H](C)NP(=O)(OC[C@@H]1C=C[C@H](n2cc(C)c(=O)[nH]c2=O)O1)Oc1ccccc1	IIIB	cytopathic effect / trypan blue	EC50	CEM + CEM TK-	-	0.1 µM
CCCn1cc(C(=O)O)c(=O)c2cc(Br)c(Oc3ccnc(Nc4ccc(C#N)cc4)n3)cc21	IIIB	MTT	EC50	MT-4	-	0.03 µM
Nc1nc(Cl)nc2c1ncn2[C@@H]1O[C@H](CO)[C@H]1O	IIIB	-	EC50	MT-4	-	0.44 µg/mL
C[C@H]1[C@@H]2O[C@]3(NC(=O)OC(C)(C)C)[C@@H](C)[C@H]1O[C@H]2[C@@H]3Br	NL4-3	MTT	EC50	MT-4	-	>72 µM
CCc1c(Cc2c(F)cccc2F)nc(SCc2ccc(C#N)cc2)[nH]c1=O	NL4-3	MTT	EC50	MT-4	-	0.075 µM
O=c1[nH]cnc2c1ncn2[C@H]1CC[C@@H](CO)O1	HXB2D (RT-K65R)	p24 / ELISA	EC50	PBMC	RT-K65R	36 µM
CC(C)c1cc(=O)oc2c3c(c4c(c12)OC(C)(C)C=C4)O[C@@H](C)[C@H](C)[C@@H]3S	RF	-	EC50	CEM + CEM-SS	-	8.4 µM
Cn1cc(C(=O)O)c(=O)c2cc(Br)c(Oc3ccnc(Nc4ccc(C#N)cc4)n3)cc21	IIIB	MTT	EC50	MT-4	-	0.087 µM
COc1nc(Cc2ccccc2)cc(=O)[nH]1	IIIB	MTT / virus yield	EC90	MT-4	-	>200 µM
O=c1[nH]c(=O)n([C@H]2C=C[C@@H](CO)O2)cc1C#CCCCO	LAI	RT activity	EC50	CEM + CEM-SS	-	120 µM
Cc1cn(CC2CN2CP(=O)(O)O)c(=O)[nH]c1=O	IIIB	cytopathic effect / MTT	EC50	MT-4	-	>100 µM
CC(C)c1cc(=O)oc2c3c(c4c(c12)OC(C)(C)C=C4)C[C@H](C)[C@@H](C)[C@@H]3O	IIIB	-	EC50	CEM + CEM-SS	-	0.1 µM
COCCOCCC(CCOCCOC)c1cc(O)c(C(c2cccc(NS(=O)(=O)c3cn(C)cn3)c2)C2CC2)c(=O)o1	IIIB	p24	EC50	MT-4	-	>>3 µM
CCOCn1c([Se]c2cc(C)cc(C)c2)c(CC)c(=O)[nH]c1=S	RF	cytopathic effect / XTT	EC50	CEM + CEM-SS	-	0.012 µM
CC(C)c1cc(=O)oc2c3c(c4c(c12)OC(C)(C)C=C4)O[C@@H](C)[C@H](C)C3=O	SKI	-	EC50	CEM + CEM-SS	-	0.9 µM
N#Cc1ccc(S(=O)(=O)Nc2cccc(C(c3c(O)cc(C(CC4CC4)CC4CC4)oc3=O)C3CC3)c2)cc1	IIIB	p24	EC50	MT-4	-	2.2 µM
CCc1c(Cc2ccccc2)nc(OC)[nH]c1=O	IIIB	MTT / virus yield	EC50	MT-4	-	<157 µM
O=Cc1cccc(CN2C(=O)N(Cc3cccc(C=O)c3)[C@H](Cc3ccccc3)[C@H](O)[C@@H](O)[C@H]2Cc2ccccc2)c1	RF	-	EC50	MT-2	-	<0.036 µM
Cc1cc(C)cc([Se]c2c(C(C)C)c(=O)[nH]c(=S)n2COCc2ccccc2)c1	RF	cytopathic effect / XTT	EC50	CEM + CEM-SS	-	0.054 µM
CC(C)CN(C[C@@H](O)[C@H](Cc1ccccc1)NC(=O)O[C@H]1CCOC1)S(=O)(=O)c1ccc(N)cc1	14aPre WT	p24	EC50	PBMC	-	0.04 µM
Cc1ccnc2c1NC(=O)c1cccnc1N2C1CC1	NL4-3	MTT	EC50	MT-4	-	0.052 µM
CC(C)(C)OC(=O)[C@@H]1CCCN1C[C@@H](O)[C@H](Cc1ccccc1)NC(=O)[C@H](CC(N)=O)NC(=O)c1ccc2ccccc2c1	RF	p24	EC50	C8166	-	0.13 µM
CCOCn1c([Se]c2ccccc2)c(C(C)C)c(=O)[nH]c1=O	RF	cytopathic effect / XTT	EC50	CEM + CEM-SS	-	0.013 µM
Cc1cn([C@H]2C[C@H](N=[N+]=[N-])[C@@H](CO)O2)c(=O)[nH]c1=O	IIIB	p24	EC50	H9	-	0.04 µg/mL
O=C1N(Cc2cccc(C(=O)C(F)(F)F)c2)[C@H](Cc2ccccc2)[C@H](O)[C@@H](O)[C@@H](Cc2ccccc2)N1Cc1cccc(C(=O)C(F)(F)F)c1	RF	-	EC50	MT-2	-	<33 µM
CCC(C)n1cc(C(=O)O)c(=O)c2cc(I)c(Oc3ccnc(Nc4ccc(C#N)cc4)n3)cc21	IIIB	MTT	EC50	MT-4	-	0.048 µM
O=c1[nH]c(=O)n([C@H]2C=C[C@@H](CO)O2)cc1C#CCCOC1CCCCO1	LAI	RT activity	EC50	CEM + CEM-SS	-	110 µM
COC(=O)c1cn(C)c2cc(Oc3ccnc(Nc4ccc(C#N)cc4)n3)c(Br)cc2c1=O	IIIB	MTT	EC50	MT-4	K103N Y181C NNRTI-resistant	>159 µM
Nc1ncnc2c1ncn2CC1CN1CP(=O)(O)O	IIIB	cytopathic effect / MTT	EC50	MT-4	-	>100 µM
C[C@@H]1[C@H](O)[C@H](C)[C@@]2(NC(=O)OC(C)(C)C)O[C@@H]1[C@@H]1O[C@@H]12	NL4-3	MTT	EC50	MT-4	-	>440 µM
CCc1c([Se]c2cc(C)cc(C)c2)n(COCCO)c(=O)[nH]c1=O	RF	cytopathic effect / XTT	EC50	CEM + CEM-SS	-	0.022 µM
C[C@@H]1O[C@@H](O[C@H]2[C@H](O[C@H]3[C@H](O[C@H]4CC[C@@]5(C)[C@@H](CC[C@]6(C)[C@@H]5CC=C5[C@@H]7CC(C)(C)C[C@@H](O)[C@]7(C)CC[C@]56C)[C@@]4(C)CO)O[C@H](C(=O)O)[C@@H](O)[C@@H]3O)O[C@H](CO)[C@H](O)[C@@H]2O)[C@H](O)[C@H](O)[C@H]1O	IIIB	cytopathic effect / trypan blue	EC50	MT-4	-	<125 µg/mL
O=c1oc(C(CC2CC2)CC2CC2)cc(O)c1C(c1cccc(NS(=O)(=O)c2ccc(F)cc2)c1)C1CC1	IIIB	p24	EC50	MT-4	-	2.2 µM
CC(C)=CCN1c2cc(Cl)cc3[nH]c(=S)n(c23)C[C@@H]1C	-	-	EC95	MT-4	RT-D67N K70R T215Y K219Q Y181C	>3 µM
Cc1cn([C@H]2C[C@H](N=[N+]=[N-])[C@@H](CO)O2)c(=O)[nH]c1=O	IIIB	cytopathic effect / MTT	EC50	CEM + CEM-SS	-	0.004 µM
Nc1nc(NC2CC2)c2ncn([C@H]3C=C[C@@H](CO)C3)c2n1	14aPre WT	p24	EC50	PBMC	-	0.42 µM
Cc1cc(C)cc([Se]c2c(C(C)C)c(=O)[nH]c(=O)n2COCCO)c1	RF	cytopathic effect / XTT	EC50	CEM + CEM-SS	-	0.019 µM
C[C@@H]1[C@@H]2O[C@]3(NC(=O)OC(C)(C)C)[C@@H](C)[C@H]1O[C@H]2[C@@H]3I	NL4-3	MTT	EC50	MT-4	-	>63 µM
CC(C)c1cc(=O)oc2c3c(c4c(c12)OC(C)(C)C=C4)O[C@H](C)[C@@H](C)C3=O	SKI	-	EC50	CEM + CEM-SS	-	3.41 µM
Nc1ccn([C@@H]2O[C@H](CO)C=C2F)c(=O)n1	-	p24	EC50	CEM	-	15–48 µM
CSC[C@H](NC(=O)c1ccc2ccccc2n1)C(=O)N[C@@H](Cc1ccccc1)[C@H](O)CN1CCCC[C@H]1C(=O)NC(C)(C)C	RF	p24	EC50	C8166	-	0.013 µM
COc1ccc(CSc2nc(Cc3c(F)cccc3F)c(C)c(=O)[nH]2)cc1OC	NL4-3	MTT	EC50	MT-4	-	0.2 µM
COC(=O)[C@H](C)OP(=O)(OC[C@@H]1C=C[C@H](n2cc(C)c(=O)[nH]c2=O)O1)Oc1ccccc1	IIIB	cytopathic effect	EC50	CEM	-	40 µM
CCC(CCOCCOC)c1cc(O)c(C(c2cccc(NS(=O)(=O)c3cn(C)cn3)c2)C2CC2)c(=O)o1	IIIB	p24	EC50	MT-4	-	5.8 µM
Cc1cccc([Se]c2c(C(C)C)c(=O)[nH]c(=S)n2COCc2ccccc2)c1	RF	cytopathic effect / XTT	EC50	CEM + CEM-SS	-	0.045 µM
CCC(CC)c1cc(O)c(C(c2cccc(NS(=O)(=O)c3cn(C)cn3)c2)C2CC2)c(=O)o1	IIIB	p24	EC50	MT-4	-	>>3 µM
Cc1cc2c(C(C)C)c(O)c(O)c3c(N)oc(/c1=c1/c(C)cc4c(C(C)C)c(=O)c(=O)c5c(N)oc1c45)c23	LAV-A	antigen	EC50	MT-4	-	0.25 µM
CC(C)=CCOc1cc(NC(=S)c2ccoc2C)ccc1Cl	A-0 (RT-L100I)	cytopathic effect	EC50	CEM	RT-L100I	0.0082 µg/mL
CC(C)=CCN1Cc2cccc3[nH]c(=S)n(c23)C[C@@H]1C	RF	cytopathic effect / XTT	EC50	CEM + CEM-SS	RT-Y181C	>100 µM
C/C(C#N)=C/c1cc(C)c(Nc2ccnc(Nc3ccc(C#N)cc3)n2)c(C)c1	-	cytopathic effect / MTT	EC50	MT-4	RT-L100I	0.00316 µM
O=c1oc(C(CC2CC2)CC2CC2)cc(O)c1C(c1cccc(NS(=O)(=O)c2cccc3cccnc23)c1)C1CC1	IIIB	p24	EC50	MT-4	-	2.3 µM
COc1cc(OC)nc(N2C(=O)CSC2c2c(Cl)ncnc2Cl)n1	NL4-3	MTT	EC50	TZM-bl	-	3.58 µM
Cc1cn([C@H]2C[C@H](N=[N+]=[N-])[C@@H](CO)O2)c(=O)[nH]c1=O	IIIB	cytopathic effect	EC50	CEM	-	0.0021 µM
N#Cc1ccc(Nc2nccc(Oc3cc4c(cc3Br)c(=O)c(C(=O)O)cn4C3CC3)n2)cc1	IIIB	MTT	EC50	MT-4	-	0.98 µM
CC(C)c1cc(=O)oc2c3c(c4c(c12)OC(C)(C)C=C4)OC(C)C(C)C3=O	IIIB	-	EC50	CEM + CEM-SS	-	0.51 µM
CCOCn1c(Cc2ccccc2)c(C(C)C)c(=O)[nH]c1=O	E-2 (RT-V106A)	cytopathic effect	EC50	CEM	RT-V106A	0.015 µg/mL
O[C@H]1[C@H]2c3cc4c(cc3CN3CCC(=C[C@@H]1O)[C@H]23)OCO4	IIIB	RT activity	EC50	MT-4	-	0.4 µg/mL
Nc1ncc2ncn([C@H]3CC[C@@H](CO)O3)c2n1	IIIB	syncytia	EC50	C8166	-	40 µM
CC(=O)Oc1c(-c2c(C)cc3c(C(C)C)c(O)c(O)c(C#N)c3c2OC(C)=O)c(C)cc2c(C(C)C)c(O)c(O)c(C#N)c12	LAV-A	antigen	EC50	MT-4	-	32 µM
CCc1c(Cc2c(Cl)cccc2Cl)nc(SCc2ccc(C#N)cc2)[nH]c1=O	NL4-3	MTT	EC50	MT-4	-	0.044 µM

a–b is a range or a potency band. Neighbouring rows are from separate reports. ECn: concentration that inhibits the pathogen or its effect by n%.